Measured values from several laboratories, pooled; numbers as filed in NIAID ChemDB.

All rows: tests in culture; agent: Herpes simplex virus 1; cells: PRK; read by: cytopathic effect; read-out: EC50

Lines come from different laboratories, so protocols vary. Blank or dashed fields: not listed here. ECn is the concentration giving n% inhibition of infection, replication or growth.

SMILES	strain or isolate	value
O=c1[nH]c(=O)n(COCCO)cc1F	-	>400 µg/mL
O=c1[nH]c(=O)n([C@H]2C[C@H](O)[C@@H](CO)O2)cc1I	KOS	0.15 µg/mL
Nc1nc2c(ncn2COCCOP(=O)(O)O[C@@H]2[C@H](O)[C@@H](COP(=O)(O)O[C@@H]3[C@H](O)[C@@H](CO)O[C@H]3n3cnc4c(N)ncnc43)O[C@H]2n2cnc3c(N)ncnc32)c(=O)[nH]1	McIntyre	1 µg/mL
CSCc1cn([C@H]2C[C@H](O)[C@@H](CO)O2)c(=O)[nH]c1=O	F	10 µg/mL
Cc1cn([C@H]2C[C@H](N=[N+]=[N-])[C@@H](CO)O2)c(=O)[nH]c1=O	KOS	>200 µg/mL
Nc1nc(=O)n([C@@H]2O[C@H](CO)[C@@H](O)[C@@H]2F)cc1I	KOS	0.02 µg/mL
O=c1[nH]c(=O)n([C@H]2C[C@H](O)[C@@H](CO)O2)cc1I	VEX142	0.1 µg/mL
O=c1[nH]cnc2c1ncn2COCCO	-	>400 µg/mL
O=c1[nH]c(=O)n([C@@H]2O[C@H](CO)[C@@H](O)[C@@H]2O)cc1/C=C/Br	KOS	0.1 µg/mL
N=C(N)CCNC(=O)c1c[nH]c(NC(=O)c2c[nH]c(NC(=O)c3c[nH]c(NC(=O)CCC(=O)Nc4c[nH]c(C(=O)Nc5c[nH]c(C(=O)Nc6c[nH]c(C(=O)NCCC(=N)N)c6)c5)c4)c3)c2)c1	-	4 µg/mL
O=c1[nH]c(=O)n([C@H]2C[C@H](O)[C@@H](CO)O2)cc1/C=C/Br	KOS	0.02 µg/mL
O=Cc1cn([C@H]2C[C@H](O)[C@@H](CO)O2)c(=O)[nH]c1=O	VEX142	2 µg/mL
O=c1[nH]c(=O)n([C@H]2C[C@H](O)[C@@H](COP(=O)([O-])OP(=O)([O-])OC[C@@H]3OC(O)[C@H](O)[C@H](O)[C@H]3O)O2)cc1I	McIntyre	0.4 µg/mL
[N-]=[N+]=NCc1cn([C@H]2C[C@H](O)[C@@H](CO)O2)c(=O)[nH]c1=O	McIntyre	1 µg/mL
[N-]=[N+]=N[C@H]1[C@@H](O)[C@H](n2cnc3c(N)ncnc32)O[C@@H]1CO	KOS	≥40 µg/mL
N=C(N)CCNC(=O)c1c[nH]c(NC(=O)c2c[nH]c(NC(=O)CCCCCCC(=O)Nc3c[nH]c(C(=O)Nc4c[nH]c(C(=O)NCCC(=N)N)c4)c3)c2)c1	-	10 µg/mL
CON1CCc2c([nH]c3ccccc23)[C@@H]1[C@@H](N)CSC	VMW1837 (TK-/TK+)	100 µg/mL
Nc1nc2c(nc(N)n2COCCO)c(=O)[nH]1	-	0.7 µg/mL
[N-]=[N+]=N[C@@H]1[C@@H](OP(=O)(O)OC[C@H]2O[C@@H](n3cnc4c(N)ncnc43)[C@H](OP(=O)(O)OCCOCn3cnc4c(=O)[nH]c(N)nc43)[C@H]2N=[N+]=[N-])[C@H](n2cnc3c(N)ncnc32)O[C@@H]1CO	KOS	0.7 µg/mL
NC1CSCON2CCc3c([nH]c4ccccc34)[C@H]12	KOS	0.7 µg/mL
Nc1ncnc2c1ncn2[C@@H]1O[C@H](CO)[C@@H](O)[C@@H]1O	KOS F McIntyre	5 µg/mL
O=c1[nH]c(=O)n([C@H]2C[C@H](O)[C@@H](CO)O2)cc1/C=C/Br	KOS	0.007 µg/mL
CNc1nc2c(=O)[nH]c(N)nc2n1COCCO	-	7 µg/mL
O=c1[nH]c(=O)n([C@H]2C[C@H](O)[C@@H](COP(=O)(O)O)O2)cc1I	McIntyre	0.2 µg/mL
Nc1nc2c(ncn2[C@H]2CC[C@H](O)[C@H]2CO)c(=O)[nH]1	377	<0.3 µg/mL
Nc1ncnc2c1ncn2[C@@H]1O[C@H](CO)[C@@H](O)[C@@H]1O	KOS	4 µg/mL
COC[C@H]1O[C@@H](n2ccc(N)nc2=O)[C@@H](O)[C@@H]1O	-	40 µg/mL
C#CCOc1cn([C@H]2C[C@H](O)[C@@H](CO)O2)c(=O)[nH]c1=O	KOS F McIntyre	1 µg/mL
O=c1[nH]c(=O)n(COCCO)cc1Cl	-	>400 µg/mL
O=c1[nH]c(=O)n([C@H]2C[C@H](O)[C@@H](CO)O2)cc1I	KOS	0.2 µg/mL
N=C(N)CCNC(=O)c1c[nH]c(NC(=O)c2c[nH]c(NC(=O)/C=C/C(=O)Nc3c[nH]c(C(=O)Nc4c[nH]c(C(=O)NCCC(=N)N)c4)c3)c2)c1	-	10 µg/mL
Nc1ccn([C@@H]2C=C(CO)[C@@H](O)[C@H]2O)c(=O)n1	B2006 (TK-)	0.1 µg/mL
Nc1ncnc2c1ncn2[C@@H]1O[C@H](COP(=O)(O)O[C@@H]2[C@H](O)[C@@H](COP(=O)(O)O[C@@H]3[C@H](O)[C@@H](COP(=O)(O)OP(=O)(O)OC[C@@H]4OC(O)[C@H](O)[C@H](O)[C@H]4O)O[C@H]3n3cnc4c(N)ncnc43)O[C@H]2n2cnc3c(N)ncnc32)[C@@H](O)[C@H]1O	-	200 µg/mL
[N-]=[N+]=N[C@@H]1[C@H](O)[C@@H](CO)O[C@H]1n1cnc2c(=O)[nH]c(N)nc21	KOS	>200 µg/mL
COc1ccc2[nH]c3c(c2c1)CCN1OCSCC(N)[C@@H]31	B2006 (TK-)	0.04 µg/mL
Nc1nc2c(ncn2COCCO)c(=O)[nH]1	1 (PAA-resistant)	0.2 µg/mL
CS(=O)Cc1cn([C@H]2C[C@H](O)[C@@H](CO)O2)c(=O)[nH]c1=O	KOS McIntyre F	>400 µg/mL
Nc1ncnc2c1ncn2[C@@H]1O[C@H](CO)[C@@H](O)[C@H]1N	KOS	≥40 µg/mL
CO[C@H]1[C@H](O)[C@@H](CO)O[C@H]1n1ccc(N)nc1=O	-	>200 µg/mL
Nc1ccn([C@@H]2O[C@H](CO)[C@@H](O)[C@@H]2O)c(=O)n1	KOS F McIntyre	0.04 µg/mL